Molecular target: Human immunodeficiency virus type 1 reverse transcriptase (Human immunodeficiency virus 1, UniProt Q72547)
Test: Inhibition of HIV-1 reverse transcriptase assessed as inhibition of biotin-dUTP incorporation into cDNA measured after 1 hr by ELISA

## Cc1cc(C#N)cc(C)c1Oc1nc(Nc2ccc(C#N)cc2)nc(N)c1Br [ETRAVIRINE]
  IC50: 48 nM

— ChEMBL document CHEMBL4811290, “Exploiting the hydrophobic channel of the NNIBP: Discovery of novel diarylpyrimidines as HIV-1 NNRTIs against wild-type and K103N mutant viruses” (Bioorg Med Chem, 2021)
